## Primary screen of a compound library

Measurements from “University of Dundee, Small-Polar-MMV Screening Library” (2021), ChEMBL document CHEMBL3988442.

Results are given as percent effect.
The controls that fix the scale are not given in the record; negative values are as filed.
The entries come from a sample that favours strong results.
A dash means the value is not listed here; it may have been measured.

Mtb glucose medium: 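Phenotypic screen: M. tuberculosis growth, glucose 7H9 medium, 3 days; the read-out is not stated. Concentration: 500 µM. Higher reads as more growth inhibition (inferred: compounds with an IC50 in retests scored well above the rest). About 18,000 compounds were tested under these conditions; 7.9% (about 1,400) showed 50% or more at least once.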
Mtb cholesterol medium: 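Growth of Mycobacterium tuberculosis over 4 days (cholesterol / DPPC medium with tyloxapol); the read-out is not stated. Compounds at 500 µM. Higher reads as more growth inhibition (inferred: compounds with an IC50 in retests scored well above the rest). About 18,000 compounds were tested under these conditions; 5% (about 900) showed 50% or more at least once.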

structure	Mtb glucose medium	Mtb cholesterol medium
O=C(NCCn1cccc1)c1ccc(Cl)cn1	85.22	82.41
COC[C@@H]1CCCN1C(=O)Nc1ccc(C(C)=O)cc1	31.3	-
Cc1nc(-c2c[nH]c(C(=O)N3CCCC3)c2)cs1	93.16	95.21
CCN(C1CC1)S(=O)(=O)c1ccc2c(c1)OCCO2	62.74	-
CC(C)CNC(=O)CNC(=O)c1ccc(Br)c(O)c1	-2.768	-
Clc1ccsc1CNCc1cc[nH]n1	18.71	-
Cc1ccc(C(=O)NCCNc2ccncc2)c(=O)[nH]1	12.96	-
COc1ccc(C(=O)NCc2ncnn2C)cc1Br	63.88	-
COc1ccc(OC)c(NC(=O)CN2CCNCC2)c1	6.579	-
Cn1c(CCO)nc2ccccc21	13.59	-
O=C(Cn1cccn1)NCCc1ccc2c(c1)OCO2	53.27	-
CC(C)n1ccc(CC(=O)N2CCCC2)n1	68.3	-
COCc1nn(Cc2ccccc2Cl)c(=O)o1	65.69	53.31
CN(C)CC(=O)Nc1ccc(S(N)(=O)=O)cc1	-	-11.87
O=C(CN1C(=O)CC2(CCCC2)C1=O)NCC1CC1	-	19.59
C[C@H](NC(=O)c1cc(C(F)(F)F)ccc1F)C(N)=O	-	-11.5
Cc1ccoc1CNC(C)Cn1cncn1 (stereo not given)	-	-1.015
N#CC(N)C1CCOCC1 (stereo not given)	1.655	-
O=C(Nc1cccc(F)c1)C1CCCN1 (stereo not given)	23.5	9.919
NC(=O)COC(=O)COc1cccc2ccccc12	14.87	-
NC(=O)COc1ccc(CNCCn2cccn2)cc1	0.6594	-
COc1ccc(C(C)=O)cc1CN1CCCC1	-14.44	-
NC(=O)c1sccc1NC(=O)c1ncccc1Br	33.18	-
CCc1nnc(CNc2cc([C@H]3C[C@@H](N)C3)ncn2)s1	16.37	-
C[C@@H](N)C(=O)N(Cc1ccccc1F)C1CCC1	19.59	-
Cn1cncc1CN	-	3.199
Cc1ccccc1C(O)C1CCNCC1 (stereo not given)	-	-13.53
N#Cc1ccccc1C(=O)N1CCOCC(O)C1 (stereo not given)	-	-5.654
OC(CSc1ncccc1Br)CN1CCOCC1 (stereo not given)	35.65	23.8
NCc1ccc(CN2CCC(C(N)=O)CC2)cc1	-9.166	-
CCc1cccc(NC(N)=O)c1	12.09	-
O=C1CCNC(=O)CC1	-13.04	-
COc1ccc(C(N)CCO)cc1 (stereo not given)	-	-8.046
CC(=O)NCCCOCC1CCCO1 (stereo not given)	14.13	-
COc1cccc(CNCCC(C)(C)O)n1	15.58	-
Cn1ncnc1CCNC(=O)c1ccsc1	2.656	-
COCC(=O)NCCc1cc(Cl)c2c(c1)OCCO2	57.7	66.45
CC(=O)NCCNS(=O)(=O)c1ccc(C)c(Cl)c1	46.26	21.07
CC(=O)NC1CN(C(=O)NCc2ccc(Br)c(F)c2)C1	-	-3.231
CO[C@@H]1CCOC[C@H]1NC(=O)Cc1cnccn1	-	-12.82
CCCc1cc(C(=O)NCC2COCCO2)cs1 (stereo not given)	81.58	80.95
CN(C)C(=O)C1(N)CCCCC1	-	-3.977
CCC1(CC)CCCN(C(=O)CS(=O)(=O)CC)CC1	91.53	86.34
CNS(=O)(=O)c1ccc(NCc2ccco2)cc1OC	67.25	85.58
Cc1cc(F)ccc1S(=O)(=O)N1C[C@H](C2CC2)[C@@H](N)C1	47.34	-
Cc1nnnn1-c1cccc(-n2cnnn2)c1	11.2	8.535
COCCN(C(=O)C1CCCO1)c1ccc(C#N)cc1 (stereo not given)	-3.582	-
CN(C)c1ncccc1CNc1nnc(C(F)F)o1	26.96	-
Cc1cc(C(=O)N(C)CC(=O)NC2CC2)c(C)o1	-	-11.91
CCC(C)OCC(=O)N(C)Cc1ccc(O)cc1 (stereo not given)	32.08	-
CSc1ncc(C(=O)NCC2CCOC2)cn1 (stereo not given)	20.05	-
Cc1ccc(OCC(C)N)cc1 (stereo not given)	-6.401	-3.11
CC(C)(C)CCC(N)C(N)=O (stereo not given)	-	16.58
Cc1nn(C)c2nc(NCCSc3ncn[nH]3)sc12	51.77	-